Results of unrelated studies side by side (data: NIAID ChemDB).

Shared fields: target-level tests

ICn is the concentration giving n% inhibition. Lines come from different laboratories, so protocols vary. An empty or dashed field is not shown. a–b is a range or a potency band. Inhibition is in % at the dose shown (toxicity tests: loss of growth or viability).

compound | read by | dose | strain or isolate | changes | protein | endpoint | species | value
CC(C)=CCN1Cc2cccc3[nH]c(=S)n(c23)C[C@@H]1C | nucleotide incorporation |  |  | RT-K263V | Reverse transcriptase | IC50 | HIV | 0.2 µM
CN(C)C(=O)C1CN(Cc2ccc(Cl)c(Cl)c2)C(=O)c2c(O)c(=O)ccn21 | ELISA |  |  |  | Integrase | IC50 | HIV-1 | 0.1–1 µM
CCCC[C@@H](CN[C@@H](CCC(N)=O)C(=O)N[C@@H](CCCN=C(N)N)C(N)=O)NC(=O)[C@H](CCCC)NC(=O)C(NC(=O)C(NC(C)=O)[C@@H](C)O)[C@@H](C)CC | HPLC |  |  | PR-R8Q | Protease | IC50 | HIV | <2.17 µM
CC(C)(C)c1ccc(-n2nnnc2SCC(=O)Nc2ccc(NC(=O)Cc3ccccc3C(F)(F)F)cc2Cl)c(Cl)c1 | PicoGreen / fluorescence |  |  | RT-K103 Y181C | Reverse transcriptase | IC50 | HIV-1 | <1 µM
CC(CC(N)=O)NC(=O)[C@@H]1CSCN1C(=O)[C@@H](O)[C@H](Cc1ccccc1)NC(=O)[C@H](CS(C)(=O)=O)NC(=O)COc1cccc2ccccc12 |  | 0.05 µM |  |  | Protease | inhibition | HIV-1 | 67%
CNC(=O)c1cc(F)ccc1CN1CCn2cc(-c3nccs3)c(=O)c(O)c2C1=O | ELISA |  |  |  | Integrase | IC50 | HIV-1 | 0.1–1 µM
CC(C)(C)NC(=O)[C@@H]1CSCN1C(=O)[C@@H](O)[C@H](Cc1ccccc1)NC(=O)[C@H](CS(C)(=O)=O)NC(=O)COc1cccc2ccccc12 |  | 0.05 µM |  |  | Protease | inhibition | HIV-1 | 93.9%
CC(C)(C)c1ccc(-n2nnnc2SCC(=O)Nc2ccc(OCC(=O)Nc3cccc(O)c3)cc2Cl)c(Cl)c1 | PicoGreen / fluorescence |  | WT |  | Reverse transcriptase | IC50 | HIV-1 | <1 µM
CC(C)(C)NC(=O)[C@@H]1C2CCCCC2CCN1C(=O)[C@@H](O)[C@H](Cc1ccccc1)NC(=O)[C@H](CS(C)(=O)=O)NC(=O)COc1cccc2ccccc12 |  | 0.05 µM |  |  | Protease | inhibition | HIV-1 | 3.4%
CC(C)(C#Cc1ccc(NC(=O)CSc2nnnn2-c2ccc(C3(C)CC3)cc2Cl)c(Cl)c1)C(=O)O | PicoGreen / fluorescence |  |  | RT-K103 Y181C | Reverse transcriptase | IC50 | HIV-1 | <1 µM
O=C1c2c(O)c(=O)c(-c3cnccn3)cn2CCN1Cc1ccc(F)c(Cl)c1 | ELISA |  |  |  | Integrase | IC50 | HIV-1 | 0.01–0.1 µM
CC(C)[C@H](NC(=O)[C@@H](NC(=O)[C@@H]1CCCN1C(=O)[C@@H](O)[C@H](Cc1ccccc1)NC(=O)[C@H](CC(N)=O)NC(=O)CCc1ccccc1)C(C)C)C(N)=O |  | 5 µM |  |  | Protease | inhibition | HIV-1 | 92.8%
Nc1ccn([C@@H]2CS[C@H](COP(=O)(O)OP(=O)(O)OP(=O)(O)O)O2)c(=O)n1 | radiometric |  |  | RT-L74V K103N | Reverse transcriptase | Ki | HIV | 0.15 µM
CN1CCN(CC2(C#Cc3ccc(NC(=O)CSc4nnnn4-c4ccc(C5CC5)cc4Cl)c(Cl)c3)CC2)CC1 | PicoGreen / fluorescence |  | WT |  | Reverse transcriptase | IC50 | HIV-1 | <1 µM
O=C1c2c(O)c(=O)ccn2CCN1Cc1ccc(F)c(Cl)c1 | ELISA |  |  |  | Integrase | IC50 | HIV-1 | 0.01–0.1 µM
O=C(COc1ccc(NC(=O)CSc2nnnn2-c2ccc(C3CC3)cc2Cl)c(Cl)c1)NCCc1ccncc1 | PicoGreen / fluorescence |  |  | RT-K103 Y181C | Reverse transcriptase | IC50 | HIV-1 | <1 µM
CCN(CC)C(=O)c1cn2ccn(Cc3cccc(Cl)c3)c(=O)c2c(O)c1=O | ELISA |  |  |  | Integrase | IC50 | HIV-1 | 0.01–0.1 µM
CC(C)(C)c1ccc(-n2nnnc2SCC(=O)Nc2ccc(OCC(=O)NC3CCN(Cc4ccccc4)CC3)cc2Cl)c(Cl)c1 | PicoGreen / fluorescence |  |  | RT-K103 Y181C | Reverse transcriptase | IC50 | HIV-1 | <1 µM
CC[C@H](C)[C@H](NC(=O)[C@@H]1CCCN1C(=O)[C@@H](O)[C@H](Cc1ccccc1)NC(=O)[C@H](CO)NC(=O)Cc1ccccc1)C(=O)N[C@H](C(N)=O)C(C)C |  | 5 µM |  |  | Protease | inhibition | HIV-1 | 19.1%
O=C(Cc1ccccc1)Nc1cn2ccn(Cc3cccc(Cl)c3)c(=O)c2c(O)c1=O | ELISA |  |  |  | Integrase | IC50 | HIV-1 | <0.01 µM
CC(C)(C#Cc1ccc(NC(=O)CSc2nnnn2-c2ccc3ncccc3c2Cl)c(Cl)c1)C(=O)O | PicoGreen / fluorescence |  | WT |  | Reverse transcriptase | IC50 | HIV-1 | <1 µM
CC(C)(C)C(=O)OCCNC(=O)c1cn2ccn(Cc3cccc(Cl)c3)c(=O)c2c(O)c1=O | ELISA |  |  |  | Integrase | IC50 | HIV-1 | 0.01–0.1 µM
CC(C)(C#Cc1ccc(NC(=O)CSc2nnnn2-c2ccc(C3CC3)cc2Cl)c(Cl)c1)NC(=O)OC(C)(C)C | PicoGreen / fluorescence |  | WT |  | Reverse transcriptase | IC50 | HIV-1 | <1 µM
CC(C)(C)OC(=O)N[C@@H](Cc1ccccc1)C(=O)N[C@@H](CO)C(=O)N[C@@H](Cc1ccccc1)[C@@H](O)C(=O)NCC1CCCCC1 |  | 1000 µM |  |  | Protease | inhibition | HIV-1 | 66.7%
O=c1c(-c2ccccn2)cn2ccn(Cc3cccc(F)c3)c(=O)c2c1O | ELISA |  |  |  | Integrase | IC50 | HIV-1 | 0.01–0.1 µM

Repeating the final 3 entries:

| compound | read by | dose | strain or isolate | changes | protein | endpoint | species | value |
|---|---|---|---|---|---|---|---|---|
| CC(C)(C#Cc1ccc(NC(=O)CSc2nnnn2-c2ccc(C3CC3)cc2Cl)c(Cl)c1)NC(=O)OC(C)(C)C | PicoGreen / fluorescence |  | WT |  | Reverse transcriptase | IC50 | HIV-1 | <1 µM |
| CC(C)(C)OC(=O)N[C@@H](Cc1ccccc1)C(=O)N[C@@H](CO)C(=O)N[C@@H](Cc1ccccc1)[C@@H](O)C(=O)NCC1CCCCC1 |  | 1000 µM |  |  | Protease | inhibition | HIV-1 | 66.7% |
| O=c1c(-c2ccccn2)cn2ccn(Cc3cccc(F)c3)c(=O)c2c1O | ELISA |  |  |  | Integrase | IC50 | HIV-1 | 0.01–0.1 µM |